Measured values from PMC3295573 (2012).

B3: LidA(188-580) (domain or fragment)
chain: TSSTSQADKEIQKMLDEYEQAIKRAQENIKKGEELEKKLDKLERQGKDLEDKYKTYEENLEGFEKLLTDSEELSLSEINEKMKAFSKDSEKLTQLMEKHKGDEKTVQSLQREHHDIKAKLANLQVLHDAHTGKKSYVNEKGNPVSSLKDAHLAINKDQEVVEHKGQFYLLQKGQWDAIKNDPAALEKAQKDYSQSKHDLATIKMEALIHKLSLEMEKQLETINDLIMSTDPKENEEATKLLHKHNGLNLKLANLQDMLAVHRKEKSFFNEKGEKVTSLNDAHYVIGKDQQLFNLGGKFYPIHKEQKILEKDGKFYLLKQGEDWESIKDSPEKQKKAEHDFHKLQYETPMTVKKLVHHNKGLETTIHKERIEETKQQLEDNGKEKIEIANNISK

How the values were obtained:
LidA(188-580) = biological target: B3
Rab11 (FL) = Rab11 (FL) (human, UniProt P62491 1-216)

B1: Rab20 (FL) (natural protein)
chain: MRKPDSKIVLLGDMNVGKTSLLQRYMERRFPDTVSTVGGAFYLKQWRSYNISIWDTAGREQFHGLGSMYCRGAAAIILTYDVNHRQSLVELEDRFLGLTDTASKDCLFAIVGNKVDLTEEGALAGQEKEECSPNMDAGDRVSPRAPKQVQLEDAVALYKKILKYKMLDEQDVPAAEQMCFETSAKTGYNVDLLFETLFDLVVPMILQQRAERPSHTVDISSHKPPKRTRSGCCA
LidA(188-580)
  Kd: 160 nM

B2: Rab4 (FL) (natural protein)
chain: MSQTAMSETYDFLFKFLVIGNAGTGKSCLLHQFIEKKFKDDSNHTIGVEFGSKIINVGGKYVKLQIWDTAGQERFRSVTRSYYRGAAGALLVYDITSRETYNALTNWLTDARMLASQNIVIILCGNKKDLDADREVTFLEASRFAQENELMFLETSALTGENVEEAFVQCARKILNKIESGELDPERMGSGIQYGDAALRQLRSPRRAQAPNAQECGC
LidA(188-580)
  Kd: 250 nM

## B3
Rab11 (FL)
  Kd: 2500 nM

B4: Rab9 (FL) (natural protein)
chain: MAGKSSLFKVILLGDGGVGKSSLMNRYVTNKFDTQLFHTIGVEFLNKDLEVDGHFVTMQIWDTAGQERFRSLRTPFYRGSDCCLLTFSVDDSQSFQNLSNWKKEFIYYADVKEPESFPFVILGNKIDISERQVSTEEAQAWCRDNGDYPYFETSAKDATNVAAAFEEAVRRVLATEDRSDHLIQTDTVNLHRKPKPSSSCC
LidA(188-580)
  Kd: 220 nM
